This experiment in a line: mammalian cell viability reduction – secondary assay, cytotoxicity control for West Nile virus antiviral project, dose response (AID 1650). The following applies: Mammalian host cell viability, cytotoxicity counter-screen; at 10 µM (top of the series). (In general: Counterscreens check selectivity or assay interference.)

Structures are written as SMILES. The entries are a selection whose mix differs from that of the whole data set. Potency and affinity values are given separately. The source made the active and inactive calls. The rule behind the calls is not given here.

The term viability denotes the share of living cells, or the viability signal relative to a control.

As for `CCC1=CC2Cc3nc4ccc(Cl)cc4c(N)c3C(C1)C2` (stereo unspecified), the viability is inactive: 74.4%.

These data come from PubChem BioAssay AID1650 (Southern Research Specialized Biocontainment Screening …, 2009).
